For the series, the system named is HIV. Nature of the series: HIV infection of MT-4 T lymphocytes, p24 ELISA of culture supernatant on day 2. Type of series: cell-based. Particulars: Table 1. The protocol:
The % values on the right axis were positioned in a fashion that allows estimation of inhibitory effect of the test drug as a function of AGB concentration plotted on the horizontal axis.
The % values on the right axis were positioned in a fashion that allows estimation of the inhibitory effect of test drug as a function of EGB concentration plotted on the horizontal axis.
Indicator MT-4 T lymphocytes (10^5 cells/ml) were plated in triplicates in 96-well culture plates in the presence of serial 10-fold molar dilutions of test compound. Each culture well contained 180 μl of RPMI 1640 culture medium with 10% FBS, L-glutamine, penicillin and streptomycin. Immediately thereafter MT-4 lymphocytes were exposed to 20 μl of viral inoculum corresponding to 100 infectious units per lymphocyte as determined by limiting dilution assay. Two days later--the minimal time period corresponding to full replication cycle of HIV--the culture supernatants were collected and dose-response to drugs was quantitated by measuring the levels of cell-free p24 antigen. The amount of released virus was calculated by comparing the optical density of experimental values from treated wells to commercial p24 standards (Coulter, Hialeah, Fla.).
The serial ten-fold dilutions of AGB, virus, and cells were left without washing in the culture until tested for HIV production 2 days later. […]
In general terms: An ELISA detects its analyte on a solid surface through an enzyme-linked reagent.

With nonoxynol-9, the “SI, selectivity index, ratio between CC100 and IC100 values” was determined as 1.
With gramicidin, the “SI, selectivity index, ratio between CC100 and IC100 values” is 1,000.

The values above are taken from patent US5837729A, “Methods for treating and preventing HIV infection using acetaminophen and derivatives thereof” (priority 1996, dated 1998).
